Pooled drug test results. Numbers come from NIAID ChemDB, via PubChem.

Shared fields: whole-cell or culture tests; agent: HIV-1

An empty or dashed field is not shown. ECn: concentration that inhibits the pathogen or its effect by n%. Conditions beyond the fields shown may differ between rows.

compound	mutations	strain or isolate	method	cell line	measure	result
N=C(N)c1cccc(OCc2ccc(Cl)cc2)c1			β-galactosidase / cell fusion	HUT4-3/SX22-1	EC50	>10 µM
O=c1[nH]c(SCc2cn[nH]n2)nc(-c2ccc(F)cc2)c1Cl		ADA5			EC50	1.05 µg/mL
NC(N)=Nc1cccc(Oc2ccccc2)c1		IIIB		C8166	EC50	6 µM
O=c1[nH]c(SCc2cn[nH]n2)nc(-c2ccc(Cl)cc2)c1Cl		ADA5			EC50	0.32 µg/mL
CCC1=C(C(=O)OCC2CCCCC2)C(c2cc(O)ccc2F)NC(=O)N1			p24 / ELISA	CEM	EC50	≤1 µM
S=C(NCc1ccco1)Nc1ccc(Cl)c(Cl)c1		IIIB	MTT	MT-4	EC50	>35.7 µM
CCc1c(NC)nc(Nc2ccc(C#N)cc2)nc1Oc1ccc2cc(Br)ccc2c1Br	K103N + Y181C	IIIB	MTT	MT-4	EC50	3.06 µM
CCOC(NC(=S)Nc1ccccn1)C(=O)c1ccc(Cl)cc1		IIIB		MT-4	EC50	69.48 µM
S=C(NCc1ccco1)Nc1ccccc1Cl		IIIB	MTT	MT-4	EC50	≥100 µM
O=C(NCCCN1CCCC2=C[C@@H]3C[C@@H](CN4CCCC[C@H]34)[C@@H]21)c1c(F)cc(Br)cc1F		NL4-3	luciferase	MT-4	EC50	>20 µM
Nc1nc(=O)n([C@@H]2CC[C@H](CO)O2)cc1F		RF	syncytia	MT-4	EC50	0.055 µM
Cc1ccccc1S(=O)(=O)c1c(C(N)=O)[nH]c2ccc(Cl)cc12	RT-K103R V179D P225H	Efavirenz-resistant (RT K103R V179D P225H)	cytopathic effect / MTT	C8166	EC50	<2.6 µM
S=C(Nc1cccc(Cl)c1)NC1CCN(Cc2ccccc2)CC1		IIIB	MTT	MT-4	EC50	>28 µM
O=C(NCCN1CCCC2=C[C@@H]3C[C@@H](CN4CCCC[C@H]34)[C@@H]21)c1cccc(F)c1		NL4-3	luciferase	MT-4	EC50	>25 µM
CC(C)=CCOc1cc(NC(=S)c2ccsc2C)ccc1Cl	RT-L100I	4XAZT+L100I (RT D67N K70R L100I T215Y K219Q)	p24	CEM + CEM-SS	EC50	0.1 µM
COC[C@@H](c1ccc(C(F)(F)F)cc1)N1CCN(C2(C)CCN(C(=O)c3c(C)ncnc3C)CC2)C[C@@H]1C	G514V	S		TZM-bl	EC50	0.0044 µM
CNc1nc(Nc2ccc(C#N)cc2)nc(Oc2ccc3ccccc3c2Br)c1C(C)C	K103N + Y181C	IIIB	MTT	MT-4	EC50	6.31 µM
CCC1=C(C(=O)OCC2CCCCC2)C(c2ccc(OC(F)F)c(O)c2)NC(=O)N1			p24 / ELISA	CEM	EC50	≤1 µM
Cc1ccc(Cl)cc1NC(=S)NCc1ccco1		IIIB	MTT	MT-4	EC50	>100 µM
Cc1cc(C#N)cc(C)c1Oc1nc(NC2CCN(S(=O)(=O)c3ccc4oc(=O)ccc4c3)CC2)nc2ccsc12		IIIB	MTT	MT-4	EC50	0.29 µM
NC(N)=Nc1cccc(OCc2ccccc2)c1		IIIB		C8168	EC50	6 µM
CCC1=C(C(=O)OCC2CCCCC2)C(c2ccc([N+](=O)[O-])c(O)c2)NC(=O)N1			p24 / ELISA	CEM	EC50	≤1 µM
Cc1cc(/C=C/C#N)cc(C)c1Oc1ccnc(Nc2ccc(CN3CCN(S(=O)(=O)N(C)C)CC3)cc2)n1	K103N		MTT	MT-4	EC50	0.011 µM
CC#C[C@@]1(CO)C=C[C@H](n2cc(C)c(=O)[nH]c2=O)O1		IIIB	cytopathic effect / MTT	MT-2	EC50	4 µM
CC(C)(C)OC(=O)N1CC2CCCCC2CN1C[C@H](O)[C@H](Cc1ccccc1)NC(=O)[C@H](CC#N)NC(=O)c1ccc2ccccc2n1		Clinical isolate strain 237228	cytopathic effect / RT activity / trypan blue	MT-2	EC50	<1 µM
CC1=C(C(=O)OCC2CCCCC2)C(c2ccc(O)cc2)NC(=O)N1			p24 / ELISA	CEM	EC50	≤1 µM
S=C(Nc1ccc(Cl)cc1)NC1CCN(Cc2ccccc2)CC1		IIIB	MTT	MT-4	EC50	>18 µM
CCC1=C(C(=O)CCC2CCCCCC2)[C@H](c2ccc(O)c(Cl)c2)NC(=O)N1			p24 / ELISA	CEM	EC50	≤1 µM
CCN(CC)CCCC(C)Nc1ccnc2cc(Cl)ccc12			RT activity	H9	EC50	<100 µM
CCc1c(Cc2ccc(Cl)cc2)n(COCc2ccccc2)c(=O)[nH]c1=O		IIIB		MT-4	EC50	5 µM
N#Cc1ccc(Nc2nccc(Oc3ccc4ccccc4c3)n2)cc1	WT	IIIB	MTT	MT-4	EC50	0.01 µM
Cc1ccnc2c1NC(=O)c1cccnc1N2C1CC1		IIIB	MTT	MT-4	EC50	0.31 µM
Cc1c(Cl)nc(Nc2ccc(C#N)cc2)nc1Oc1ccc2ccccc2c1Br	WT	IIIB	MTT	MT-4	EC50	0.06 µM
Cc1cc(C)cc(S(=O)(=O)c2c(C(N)=O)[nH]c3ccc(Cl)cc23)c1		IIIB	p24	C8166	EC50	<0.002 µM
CCCCCNc1ccc(C2NC(=O)NC(CC)=C2C(=O)OCC2CCCCC2)cc1			p24 / ELISA	CEM	EC50	≤1 µM
CC(=O)Nc1ccc(S(=O)(=O)Nc2ccc(Nc3nc(Oc4c(C)cc(C#N)cc4C)c4sccc4n3)cc2)cc1		IIIB	MTT	MT-4	EC50	0.28 µM
Nc1nc(=O)n([C@H]2C=C[C@@H](CO)O2)cc1F		LAI	PCR	PBMC	EC50	<0.38 µM
Cc1cc(C)cc(S(=O)(=O)c2c(C(=O)NCC(=O)NN)[nH]c3ccc(Cl)cc23)c1		IIIB	cytopathic effect / MTT / p24	MT-4	EC90	0.03 µM
S=C(NCc1ccco1)Nc1cccc(Cl)c1		IIIB	MTT	MT-4	EC50	>60 µM
Cc1c(O)cccc1C(=O)N[C@@H](Cc1ccccc1)[C@H](O)CN1C[C@H]2CCCC[C@H]2C[C@H]1C(=O)NC(C)(C)C		HXB2	cytopathic effect / XTT	CEM + CEM-SS	EC95	0.135 µM
CC(C)(C)CNc1cccnc1N1CCN(C(=O)c2cc3ccccc3[nH]2)CC1		D34	p24	PBMC	EC50	10 µM
CCOC(NC(=S)Nc1ccccn1)C(=O)c1ccccc1Cl		IIIB		MT-4	EC50	67.05 µM
CCO[C@@H]1Cc2cc(C(F)(F)F)ccc2C1N1CCN(C2(C)CCN(C(=O)c3c(C)ncnc3C)CC2)C[C@@H]1C		97ZA003	p24	PBMC	EC50	0.0026 µM
Cc1cc(C#N)cc(C)c1Oc1nc(Nc2ccc(NS(=O)(=O)c3ccc4oc(=O)ccc4c3)cc2)nc2ccsc12		IIIB	MTT	MT-4	EC50	12.55 µM
CCCCCCCCCC(=O)O[C@@]12[C@H](OCOC)[C@@H](C)[C@@]3(O)[C@@H](C=C(CO)C[C@]4(O)C(=O)C(C)=C[C@@H]34)[C@@H]1C2(C)C		IIIB	MTT	MT-4	EC50	0.0013 µg/mL
Cc1ccc(S(=O)(=O)c2c(C(N)=O)[nH]c3ccc(Cl)cc23)c(C)c1	RT-K103R V179D P225H	Efavirenz-resistant (RT K103R V179D P225H)	cytopathic effect / MTT	C8166	EC50	<5.3 µM
CC(O)[C@H](NC(=O)c1ccc2ccccc2n1)C(=O)N[C@@H](Cc1ccccc1)C(O)CN1CC2CCCCC2CN1C(=O)OC(C)(C)C		Clinical isolate strain 237228	cytopathic effect / RT activity / trypan blue	MT-2	EC50	<1 µM
CC(C)c1c(Cl)nc(Nc2ccc(C#N)cc2)nc1Oc1ccc2ccccc2c1Br	WT	IIIB	MTT	MT-4	EC50	0.208 µM
O=C(NCCN1CCCC2=C[C@@H]3C[C@@H](CN4CCCC[C@H]34)[C@@H]21)c1ccc(OC(F)(F)F)cc1		NL4-3	luciferase	MT-4	EC50	>25 µM
[N-]=[N+]=N[C@@H]1C[C@@H](n2cc(F)c(N)nc2=O)O[C@H]1CO		LAV	RT activity	PBMC	EC50	0.05 µM
Nc1ccn([C@H]2C=C[C@@H](CO)O2)c(=O)n1		IIIB	antigen	MT-4	EC50	<0.5 µM
CC(C)N(C[C@H](O)[C@H](Cc1ccccc1)NC(=O)[C@H](CC(N)=O)NC(=O)c1ccc2ccccc2n1)NC(=O)C(C)(C)C		Clinical isolate strain 237228	cytopathic effect / RT activity / trypan blue	MT-2	EC50	<1 µM
O=C(NCCCCCCN1CCCC2=C[C@@H]3C[C@@H](CN4CCCC[C@H]34)[C@@H]21)c1ccc(C(F)(F)F)cc1		NL4-3	luciferase	MT-4	EC50	3.97 µM
CC(C)N(C[C@H](O)[C@H](Cc1ccccc1)NC(=O)[C@H](CC(N)=O)NC(=O)c1ccc2ccccc2n1)NC(=O)OC(C)(C)C		Clinical isolate strain 237228	cytopathic effect / RT activity / trypan blue	MT-2	EC50	<0.1 µM
Cc1cccc2[nH]c(C(=O)N3CCN(c4ncccc4NC(C)C)CC3)cc12		D34	p24	PBMC	EC50	0.01 µM
N=C(N)c1cccc(OCc2ccccc2)c1			β-galactosidase / cell fusion	HUT4-3/SX22-1	EC50	>10 µM
CCC1=C(C(=O)CCC2CCCCC2)[C@H](c2ccc(O)c(Cl)c2)NC(=O)N1			p24 / ELISA	CEM	EC50	≤1 µM
CC(C)[C@H](NC(=O)c1ccc2ccccc2n1)C(=O)N[C@@H](Cc1ccccc1)[C@H](O)CN(NC(=O)OC(C)(C)C)C(C)C		Clinical isolate strain 237228	cytopathic effect / RT activity / trypan blue	MT-2	EC50	<5 µM
CCc1c(NC)nc(Nc2ccc(C#N)cc2)nc1Oc1ccc2cc(C#N)ccc2c1Br	WT	IIIB	MTT	MT-4	EC50	0.139 µM
CC(C)(C)OC(=O)N1CC2CCCCC2CN1CC(O)[C@H](Cc1ccccc1)NC(=O)[C@H](CCC(N)=O)NC(=O)c1ccc2ccccc2n1		Clinical isolate strain 237228	cytopathic effect / RT activity / trypan blue	MT-2	EC50	<1 µM
Cc1cc(C#N)cc(C)c1Oc1nc(Nc2ccc(C#N)cc2)nc(N)c1Br		IIIB	MTT	MT-4	EC50	0.004 µM

Repeating the final 4 entries:

compound | mutations | strain or isolate | method | cell line | measure | result
CC(C)[C@H](NC(=O)c1ccc2ccccc2n1)C(=O)N[C@@H](Cc1ccccc1)[C@H](O)CN(NC(=O)OC(C)(C)C)C(C)C |  | Clinical isolate strain 237228 | cytopathic effect / RT activity / trypan blue | MT-2 | EC50 | <5 µM
CCc1c(NC)nc(Nc2ccc(C#N)cc2)nc1Oc1ccc2cc(C#N)ccc2c1Br | WT | IIIB | MTT | MT-4 | EC50 | 0.139 µM
CC(C)(C)OC(=O)N1CC2CCCCC2CN1CC(O)[C@H](Cc1ccccc1)NC(=O)[C@H](CCC(N)=O)NC(=O)c1ccc2ccccc2n1 |  | Clinical isolate strain 237228 | cytopathic effect / RT activity / trypan blue | MT-2 | EC50 | <1 µM
Cc1cc(C#N)cc(C)c1Oc1nc(Nc2ccc(C#N)cc2)nc(N)c1Br |  | IIIB | MTT | MT-4 | EC50 | 0.004 µM